According to US20230138393A1, “LINKING AMINO ACID SEQUENCES, MANUFACTURING METHOD THEREOF, AND USE THEREOF” (priority 2020, published 2023):

Columns and labels:
[1] = system: HEK293 cells; assay: Cell cytotoxicity studies of cofactor analogs (CellTiter Glo); settings: doses up to 2 mM, 12 h
[2] = system: HeLa cells; assay: as above; settings: doses up to 2 mM, 12 h

CCOC(=O)CF
cell cytotoxicity [1]: minimal toxicity
cell cytotoxicity [2]: minimal toxicity
